PubChem BioAssay AID504761 – Drosophila RNAi Screening Center – 2011
Aim: 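Fly genes whose silencing reduces dengue virus type 2 infection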 (primary screen). System: D.Mel-2 cells from Drosophila. Knock-down reagent: long dsRNA against Drosophila genes. Conditions: infection with dengue virus type 2; dose and infection time not stated. Measured: 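Cells stained for dengue envelope protein and imaged; percent of infected cells per well on duplicate plates, ranked by infection, with stained nuclei counted for cell number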. Scale: infection score: higher = more virus-infected cells; cell count: higher = more cells in the well. Rule for the call: 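Very low infection ranking in both replicate wells (chance probability at most 0.065), then a retest showing infection dropped 1.5-fold or more at p below 0.05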. Meaning of the calls: active = confirmed: knock-down lowers infection; inactive = not picked or not confirmed.
The screen tested about 22,000 reagents; below is an unselected part of those that have a named target and a result. Of all reagents, 116 (0.52%) were called active. 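Calls depend on retest data that are not deposited; infection was ranked per plate without normalising between plates; the unit of the infection score is not given.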 Raw values vary from plate to plate and are shown uncorrected. Names joined by + are all predicted targets of the reagent. Reagent sequences are not shown. The record does not give: the amount of reagent, the time to read-out.

gene knocked down	amplicon	infection score, replicate 1	infection score, replicate 2	cell count, replicate 1	cell count, replicate 2	activity call
Gyc32E	DRSC01154	2.11	0.42	5840	5737	inactive
Gyc32E	DRSC29757	4.76	4.76	6170	6136	inactive
Atg12	DRSC09803	2.3	2.89	6447	6262	inactive
Cyp6d2	DRSC04606	5.16	4.24	6448	6550	inactive
Cyp6d2	DRSC25647	0.9	2.21	6196	6109	inactive
CG17321	DRSC02598	8.02	4.27	5501	6606	inactive
CG17321	DRSC25649	2.71	4.29	6093	6102	inactive
Ptp36E	DRSC03021	0.17		584	440	inactive
schlank	DRSC18102	1.1	4.63	6186	6075	inactive
schlank	DRSC18313	14.8	24.6	5605	4905	inactive
CG3494	DRSC04375	2.67	9.86	6823	5839	inactive
Tif-IA	DRSC03717	18.6	14.8	6032	6100	inactive
Tif-IA	DRSC03726	29.2	27.1	4958	3537	inactive
Ube4A	DRSC02004	3.31	16.1	5916	5422	inactive
mthl12	DRSC12964	3.56	5.59	5863	5886	inactive
DIP-kappa	DRSC01336	0.36	6.61	6194	5673	inactive
DIP-kappa	DRSC01337	5.23	5.57	3883	5192	inactive
CG15170	DRSC02471		13.7	646	7107	inactive
CG17196	DRSC15189	3.53	7.01	6353	6619	inactive
CG10444	DRSC05990	4.76	8.17	3488	3955	inactive
ProtB	DRSC03373	2.05	0.92	6094	6205	inactive
ProtB	DRSC27427	7.19	6.98	6889	6764	inactive
Ufm1 + mute	DRSC26798	11.7	1.73	5804	4925	inactive
CG34398	DRSC01052	0.6	3.92	5998	6710	inactive
CG34398	DRSC02511	37.4	41.5	4695	4673	inactive
CG34398	DRSC03228	1.14	2.05	6672	6842	inactive
CG34398	DRSC23293	2.79	14.5	6411	5975	inactive
Ubx	DRSC16891	1.19	1.74	6396	6721	inactive
Ubx	DRSC23812	0.15	0.28	6075	6051	inactive
CG12935	DRSC06248	10.3	4.61	6318	6573	inactive
CG15022	DRSC08476	0.62	2.13	6098	5723	inactive
CG15022	DRSC25079	5.42	6.59	5995	5947	inactive
Bbd	DRSC06709	1.49	5.43	6302	6101	inactive
CG3982	DRSC23139	4.67	3.46	6698	7082	inactive
CG3982	DRSC26894	3.57	14.5	6159	6509	inactive
ewg	DRSC18773	0.61	4.31	6706	6826	inactive
ewg	DRSC26141	9.62	6.06	6175	6037	inactive
DZIP1	DRSC14620	1.59	1.61	6475	6519	inactive

9 consecutive reagents already listed:
gene knocked down	amplicon	infection score, replicate 1	infection score, replicate 2	cell count, replicate 1	cell count, replicate 2	activity call
ProtB	DRSC03373	2.05	0.92	6094	6205	inactive
ProtB	DRSC27427	7.19	6.98	6889	6764	inactive
Ufm1 + mute	DRSC26798	11.7	1.73	5804	4925	inactive
CG34398	DRSC01052	0.6	3.92	5998	6710	inactive
CG34398	DRSC02511	37.4	41.5	4695	4673	inactive
CG34398	DRSC03228	1.14	2.05	6672	6842	inactive
CG34398	DRSC23293	2.79	14.5	6411	5975	inactive
Ubx	DRSC16891	1.19	1.74	6396	6721	inactive
Ubx	DRSC23812	0.15	0.28	6075	6051	inactive

The results go on:
gene knocked down	amplicon	infection score, replicate 1	infection score, replicate 2	cell count, replicate 1	cell count, replicate 2	activity call
Rm62	DRSC12365	10.8		1607	292	inactive
Rm62	DRSC25109	5.55	17.4	5825	3603	inactive
CG10903	DRSC14281	6.5	7.52	5904	5534	inactive
Cep290	DRSC08359	3.39	2.39	6203	6265	inactive
Cep290	DRSC29987	13	6.1	6101	6133	inactive
CG32576	DRSC19136	3.1	6.19	6068	6301	inactive
pkaap	DRSC01925	18.2	0.88	5685	6573	inactive
RpL41	DRSC22958	1.05	2.87	6643	6346	inactive
CG3081	DRSC18571		0.63	442	636	inactive
ND-B15	DRSC06199	22.3	16.8	5515	5533	inactive
Ttd14	DRSC06632	10.4	3.1	6555	6591	inactive
Ttd14	DRSC06942	10.2	6.04	6397	596	inactive
fd96Ca	DRSC16946	2.1	9.8	6134	3297	inactive
fd96Ca	DRSC23974	0.87	1.55	6471	6054	inactive
CG33230	DRSC08602	15.4	20.3	4964	4187	inactive
Idgf2	DRSC03350	24.4	11.9	5953	6044	inactive
Idgf2	DRSC26630	1.95	6.4	6984	6154	inactive
teq	DRSC10298	5.6	4.28	5406	5797	inactive
teq	DRSC11301	1.21	2	5932	6102	inactive
teq	DRSC11302	2.12	2.08	5802	6290	inactive
Npl4	DRSC15615	3.19	4.19	6459	6377	inactive
Npl4	DRSC15616	3.72		4276	314	inactive
Rcd6	DRSC06054	15.1	15.7	6033	6141	inactive
Rcd6	DRSC27115	38.4	14.8	5377	5683	inactive
CR14033	DRSC02358	3.23	23	5910	3893	inactive
CR14033	DRSC24988	2.51	4.22	5748	6036	inactive
CG31688	DRSC02682	3.36	2.08	6610	6698	inactive
CG31688	DRSC26711	1.07	2.04	6260	6371	inactive
Pde6	DRSC16401	5.43	9.62	6427	6880	inactive
Pde6	DRSC16402	7.66	2.74	6398	6724	inactive
Pde6	DRSC16403	1.45	1.03	6143	6416	inactive
Or35a	DRSC03389	1.59	10.6	6727	5938	inactive
CG31689	DRSC24715	3.25	2.99	6217	6261	inactive
Eig71Ec	DRSC11150	2.46	5.72	6212	6345	inactive
lncRNA:CR42862	DRSC08348	10.5	8.98	5571	3208	inactive
lncRNA:CR42862	DRSC27596	4.36	16.5	6715	6250	inactive
lncRNA:CR42862	DRSC36563	1.9	6	6206	6811	inactive
